# Measured values published in patent US3980522A, “Production of a new antibiotic, calvatic acid” (Zaidan Hojin Biseibutsu Kagaku Kenkyu Kai, priority 1973, dated 1976).
# Legend:
# [1] = system: Staphylococcus aureus FDA 209P; assay: Antimicrobial spectrum, agar dilution MIC; format: cell-based; details: FDA209P, agar dilution method
# [2] = system: Xanthomonas oryzae; assay: microbe, parasite or virus in culture; format: cell-based
smiles,measurement,setting,value
"N#CN=[N+]([O-])c1ccc(C(=O)O)cc1 [calvatic acid, p-carboxyphenylazoxycarbonitrile]",MIC,[1],6.25 µg/mL
same,MIC,[2],3.12 µg/mL
